Reference: PubChem BioAssay AID624099 (ICCB-Longwood, 2012)
Purpose: 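Human genes that papillomavirus E2 requires to repress the HPV18 LCR promoter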 (primary screen). Cell system: human C33A cervical carcinoma cells (HPV-negative) stably expressing BPV1 E2 and an HPV18 LCR luciferase reporter. Knock-down reagent: siRNA pool against human genes, 40 nM. Duration: 72 h. Read-out: 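HPV18 LCR reporter light per well, converted to plate-wise z-scores that exclude control wells, and averaged over triplicate plates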. Direction: mean z-score and z-score: higher = stronger reporter signal, weaker E2 silencing. Rule for the call: 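Hit if mean z-score reaches 2 and two or more of three replicate z-scores also reach 2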.
This is one part, drawn at random, of about 21,000 reagents. 497 of them (2.4%) were called active. 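Higher z means weaker E2 silencing; only reporter increases were scored, and knock-downs that hurt cell survival may mask genuine repressor factors.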

KIR2DL5A
- mean z-score: -0.9
- z-score, replicate A: -0.75
- z-score, replicate B: -1.02
- z-score, replicate C: -0.93
- call: inactive

THAP1 (THAP domain containing 1)
- mean z-score: -1.12
- z-score, replicate A: -1.25
- z-score, replicate B: -1.09
- z-score, replicate C: -1.01
- call: inactive

SLC37A1
- mean z-score: -0.09
- z-score, replicate A: 0.54
- z-score, replicate B: -0.58
- z-score, replicate C: -0.24
- call: inactive

NDUFS5 (NADH:ubiquinone oxidoreductase subunit S5)
- mean z-score: -0.36
- z-score, replicate A: -0.07
- z-score, replicate B: -0.36
- z-score, replicate C: -0.66
- call: inactive

IPO13 (importin 13)
- mean z-score: 0.37
- z-score, replicate A: 0.53
- z-score, replicate B: 0.27
- z-score, replicate C: 0.31
- call: inactive

MEGF11 (multiple EGF like domains 11)
- mean z-score: 0.14
- z-score, replicate A: 0.44
- z-score, replicate B: -0.02
- z-score, replicate C: 0
- call: inactive

SLC27A6
- mean z-score: 0.32
- z-score, replicate A: 0.01
- z-score, replicate B: 0.08
- z-score, replicate C: 0.86
- call: inactive

MELTF (melanotransferrin)
- mean z-score: -0.48
- z-score, replicate A: -0.86
- z-score, replicate B: -0.38
- z-score, replicate C: -0.19
- call: inactive

TRNAU1AP (tRNA selenocysteine 1 associated protein 1)
- mean z-score: 0.46
- z-score, replicate A: 0.75
- z-score, replicate B: 0.27
- z-score, replicate C: 0.36
- call: inactive

LOC151760 (putative uncharacterized protein LOC151760)
- mean z-score: 0.3
- z-score, replicate A: 0.04
- z-score, replicate B: 0.33
- z-score, replicate C: 0.52
- call: inactive

LOC391343 (retired record)
- mean z-score: -0.5
- z-score, replicate A: -0.51
- z-score, replicate B: -0.58
- z-score, replicate C: -0.42
- call: inactive

FLRT1 (fibronectin leucine rich transmembrane protein 1)
- mean z-score: -0.92
- z-score, replicate A: -1.22
- z-score, replicate B: -0.48
- z-score, replicate C: -1.06
- call: inactive

KAT6A (lysine acetyltransferase 6A)
- mean z-score: -0.74
- z-score, replicate A: -0.88
- z-score, replicate B: -0.62
- z-score, replicate C: -0.72
- call: inactive

HDAC3 (histone deacetylase 3)
- mean z-score: -0.58
- z-score, replicate A: -0.58
- z-score, replicate B: -0.43
- z-score, replicate C: -0.72
- call: inactive

GTSE1 (G2 and S-phase expressed 1)
- mean z-score: 1
- z-score, replicate A: 0.81
- z-score, replicate B: 1
- z-score, replicate C: 1.19
- call: inactive

A4GALT (alpha 1,4-galactosyltransferase (P1PK blood group))
- mean z-score: 0.88
- z-score, replicate A: 1.16
- z-score, replicate B: 0.48
- z-score, replicate C: 0.99
- call: inactive

DNAJB6 (DnaJ heat shock protein family (Hsp40) member B6)
- mean z-score: 0.92
- z-score, replicate A: 0.75
- z-score, replicate B: 1.03
- z-score, replicate C: 0.99
- call: inactive

TGM6 (transglutaminase 6)
- mean z-score: -2.04
- z-score, replicate A: -2.13
- z-score, replicate B: -2.11
- z-score, replicate C: -1.86
- call: inactive

TMED10 (transmembrane p24 trafficking protein 10)
- mean z-score: -0.78
- z-score, replicate A: -0.45
- z-score, replicate B: -0.98
- z-score, replicate C: -0.91
- call: inactive

MAP4K5 (mitogen-activated protein kinase kinase kinase kinase 5)
- mean z-score: 0.8
- z-score, replicate A: 0.93
- z-score, replicate B: 0.47
- z-score, replicate C: 0.99
- call: inactive

RTCB (RNA 2',3'-cyclic phosphate and 5'-OH ligase)
- mean z-score: -0.18
- z-score, replicate A: 0.05
- z-score, replicate B: -0.79
- z-score, replicate C: 0.22
- call: inactive

UGT2A1 (UDP glucuronosyltransferase family 2 member A1 complex locus)
- mean z-score: 0.88
- z-score, replicate A: 0.6
- z-score, replicate B: 1.09
- z-score, replicate C: 0.95
- call: inactive

DEFA3 (defensin alpha 3)
- mean z-score: 4.03
- z-score, replicate A: 4.2
- z-score, replicate B: 3.58
- z-score, replicate C: 4.3
- call: active

SLC6A15
- mean z-score: -1.27
- z-score, replicate A: -1.34
- z-score, replicate B: -1.28
- z-score, replicate C: -1.2
- call: inactive

ARHGEF4 (Rho guanine nucleotide exchange factor 4)
- mean z-score: 0.65
- z-score, replicate A: 0.65
- z-score, replicate B: 0.59
- z-score, replicate C: 0.72
- call: inactive

UNC45B (unc-45 myosin chaperone B)
- mean z-score: 1.71
- z-score, replicate A: 1.64
- z-score, replicate B: 1.93
- z-score, replicate C: 1.57
- call: inactive

CWF19L1 (CWF19 like cell cycle control factor 1)
- mean z-score: -0.64
- z-score, replicate A: -0.99
- z-score, replicate B: -0.8
- z-score, replicate C: -0.13
- call: inactive
